Anti-infective test results gathered from many reports (values: NIAID ChemDB through PubChem).

Common to all: tests in culture; species: HIV-1; read by: RT activity; endpoint: EC50

ECn is the concentration giving n% inhibition of infection, replication or growth. Lines come from different laboratories, so protocols vary. a–b is a range or a potency band. An empty or dashed field is not shown.

smiles,cells,strain,conditions,changes,value
Cc1cn([C@H]2C[C@H](N=[N+]=[N-])[C@@H](CO)O2)c(=O)[nH]c1=O,PBMC,RW/92/016 (subtype A/A),,,0.00047 µM
CN1CCN(CCSc2nc(-c3ccc4ccccc4c3)c3ccccc3n2)CC1,PBMC,LAV-1,,,2.6 µM
Nc1nccc2c1ncn2[C@@H]1C=C(CO)[C@@H](O)[C@H]1O,H9,MN,,,0.001 µM
CC(C)[C@H](NC(=O)[C@H](Cc1ccccc1)C[C@H](O)[C@H](Cc1ccccc1)NC(=O)OC(C)(C)C)C(=O)N[C@@H](Cc1ccccc1)C(=O)N1CCOCC1,MT-2,LAV,,,0.05 µM
COC(=O)[C@@H](NC(=O)[C@@H](NC(=O)CC[C@H](O)[C@H](Cc1ccccc1)NC(=O)[C@H](C)NC(=O)[C@H](C)N)C(C)C)C(C)C,MOLT-4,IIIB,,,8 µM
Cc1cn([C@H]2C=C(F)[C@@H](CO)O2)c(=O)[nH]c1=O,PBMC,LAI,,,>100 µM
CC1=N/C(=C/c2ccccc2O)C(=O)N1c1nc(C)cc(=O)[nH]1,,,,,71.15 µg/mL
O=C(NCCO)c1c(O)c2ncc(Cc3ccc(F)cc3)cc2n(-c2ccc(F)cc2)c1=O,PBMC,BaL,,,0.0027 µM
CC(C)C1=C2[C@H]3CC[C@@H]4[C@@]5(C)CC[C@H](OC(=O)CC(C)(C)C(=O)O)C(C)(C)[C@@H]5CC[C@@]4(C)[C@]3(C)CC[C@@]2(NC(=O)C2CCN(C(=O)OC(C)(C)C)CC2)CC1=O,MT-2,IIIB,30% human serum,,<0.199 µM
OCCN(CCO)CCOc1nc(-c2cccs2)cc(-c2cccs2)n1,PBMC,LAV-1,,,3.8 µM
CC(=O)N1CCN(C(=O)N[C@@]23CC[C@]4(C)[C@H](CC[C@@H]5[C@@]6(C)CC[C@H](OC(=O)CC(C)(C)C(=O)O)C(C)(C)[C@@H]6CC[C@]54C)C2=C(C(C)C)C(=O)C3)CC1,MT-2,IIIB,30% human serum,,<0.199 µM
CCc1c(OC)nc(OC)c2c1CC1(CC(C)CC(C)C1)OC2=O,CEM + CEM-SS,LAI,,,>100 µM
CN(C)CCSc1cccc(-c2ccnc(SCCN(C)C)n2)c1,PBMC,LAV-1,,,9.3 µM
OCCN(CCO)c1nc(-c2cccs2)cc(-c2cccs2)n1,PBMC,LAV,,,4.5 µM
CC(=O)N[C@H]1[C@@H](OP(=O)(O)OP(=O)(O)OC[C@H]2O[C@@H](n3ccc(=O)[nH]c3=O)C[C@@H]2N=[N+]=[N-])O[C@H](CO)[C@@H](O)[C@@H]1O,PBMC,LAV,,,0.57–2.09 µM
Nc1ccn([C@H]2CC[C@@H](CO)O2)c(=O)n1,Macrophage + Macrophages,LAI,,,<1 µM
Cc1cn([C@H]2CO[C@@H](COP(=O)(N[C@@H](C)C(=O)OCc3ccccc3)Oc3ccccc3Cl)O2)c(=O)[nH]c1=O,PBMC,LAI,,RT-M184V,0.57 µM
O=c1[nH]cnc2c1ncn2[C@@H]1C=C(F)[C@H](CO)O1,PBMC,LAI,,,>100 µM
COC(=O)[C@@H](NC(=O)[C@@H](NC(=O)[C@H](C)C[C@H](O)[C@H](Cc1ccccc1)NC(=O)[C@H](C)NC(=O)[C@H](C)NC(=O)OCc1ccccc1)C(C)C)C(C)C,MOLT-4,IIIB,,,0.85 µM
CN(C)CCSc1nccc(-c2cccs2)n1,PBMC,LAV,,,25.5 µM
CC(C)C1=C2C3CCC4[C@@]5(C)CC[C@H](OC(=O)CC(C)(C)C(=O)O)C(C)(C)C5CC[C@@]4(C)[C@]3(C)CC[C@@]2(NC(=O)NC2CC2)CC1=O,MT-2,IIIB,30% human serum,,<0.199 µM
Nc1ccn([C@@H]2C=C(F)[C@H](CO)O2)c(=O)n1,PBMC,BRU,,,<0.14 µM
C[C@]1(CO)CO[C@@H](n2cnc3c(=O)[nH]c(F)nc32)C1,PBMC,LAV,,,0.073 µM
CN(C)CCSc1cccc(-c2ccnc(-c3cccc(SCCN(C)C)c3)n2)c1,PBMC,LAV-1,,,21.3 µM
OCCN(CCO)CCOc1nc(-c2cccs2)cc(-c2cccs2)n1,PBMC,LAV,,,3.8 µM
C/C=C1/N=C(C)N(c2nc(C)cc(=O)[nH]2)C1=O,,,,,53.6 µg/mL
C[n+]1c(-c2cccc(C(=O)NCCCCCC(=O)NCCC(=O)N[C@@H](CCCN=C(N)N)C(=O)NCCCNCCCNCC(=O)O)c2)c2cc(N)ccc2c2ccc(N)cc21.O=C(O)C(F)(F)F.O=C(O)C(F)(F)F.O=C(O)C(F)(F)F.[Cl-],CEM + CEM-SS,LAI,,,>10 µM
CN(C)Cc1ccc(-c2cccc(-c3ccc(CN(C)C)cc3)n2)cc1,PBMC,LAV,,,1.6 µM
CC(C)C1=C2C3CCC4[C@@]5(C)CC[C@H](OC(=O)CC(C)(C)C(=O)O)C(C)(C)C5CC[C@@]4(C)[C@]3(C)CC[C@@]2(NC(=O)c2cscn2)CC1=O,MT-2,IIIB,30% human serum,,<0.199 µM
Nc1nc2c(ccn2[C@H]2C=C[C@@H](CO)C2)c(=O)[nH]1,PBMC,IIIB,,,7 µM
CC(C)C1=C2[C@H]3CC[C@@H]4[C@@]5(C)CC[C@H](OC(=O)CC(C)(C)C(=O)O)C(C)(C)[C@@H]5CC[C@@]4(C)[C@]3(C)CC[C@@]2(NC(=O)OC(C)(C)C)CC1=O,MT-2,IIIB,,,<0.199 µM
COc1ccc(/C=C2/N=C(c3ccccc3)N(c3nc(C)cc(=O)[nH]3)C2=O)cc1,,,,,56.24 µg/mL
Cc1c(-c2ccc(SCCN(C)C)cc2)ncnc1-c1ccc(SCCN(C)C)cc1,PBMC,LAV-1,,,6 µM
CC(C)C1=C2[C@H]3CC[C@@H]4[C@@]5(C)CC[C@H](OC(=O)CC(C)(C)C(=O)O)C(C)(C)[C@@H]5CC[C@@]4(C)[C@]3(C)CC[C@@]2(NC(=O)NCc2ccnn2C)CC1=O,MT-2,IIIB,30% human serum,,<0.199 µM
CCc1c(O)[nH]c(=O)c(C#N)c1Cc1cc(C)cc(C)c1,CEM + CEM-SS,LAI,,,>100 µM
O=c1[nH]cnc2c1ncn2[C@H]1C=C(F)[C@@H](CO)O1,PBMC,LAI,,,>100 µM
COC(=O)[C@H](C)NP(=O)(OC[C@@H]1OC[C@H](n2cc(C)c(=O)[nH]c2=O)O1)Oc1cccc2ccccc12,PBMC,LAI,,RT-M184V,0.14 µM
CC(C)CC[C@@H](O)[C@@H](C)[C@H]1CCC2C3C[C@H](OS(=O)(=O)O)C4C[C@@H](OS(=O)(=O)O)CC[C@]4(C)C3=CC[C@@]21C,CEM + CEM-SS,RF,,,80 µM
CN1CCN(CCSc2nc(-c3cc4ccccc4s3)c3ccccc3n2)CC1,PBMC,LAV,,,6.1 µM
COC(=O)C(C)(C)NP(=O)(OC[C@@H]1OC[C@H](n2cc(C)c(=O)[nH]c2=O)O1)Oc1cccc2ccccc12,PBMC,LAI,,RT-M184V,0.38 µM
CN1N=C(N)c2cn(C3C=CC(CO)O3)c3ncnc1c23,CEM + CEM-SS,IIIB,,,100 µM
CN1CCN(CCSCc2ccc(-c3cccc(-c4ccc(CSCCN5CCN(C)CC5)cc4)n3)cc2)CC1,PBMC,LAV,,,5.9 µM
COc1cc(C[C@@]2(O)C(=O)OC[C@@H]2Cc2ccc(OC)c(OC)c2)ccc1O,H9,IIIB,,,<1 µM
COC(=O)[C@@H](NP(=O)(OC[C@@H]1OC[C@H](n2cc(C)c(=O)[nH]c2=O)O1)Oc1ccccc1)C(C)C,PBMC,LAI,,RT-M184V,9.6 µM
COc1cc(/C=C2/N=C(c3ccccc3)N(c3nc(C)cc(=O)[nH]3)C2=O)ccc1O,,,,,54.54 µg/mL
CC(C)[C@H](NC(=O)[C@H](Cc1ccccc1)C[C@H](O)[C@H](Cc1ccccc1)NC(=O)[C@H](C)NC(=O)OCc1ccccc1)C(N)=O,MOLT-4,IIIB,,,0.76 µM
Cc1cn([C@H]2CO[C@@H](COP(=O)(N[C@@H](C)C(=O)OCc3ccccc3)Oc3cccc4ccccc34)O2)c(=O)[nH]c1=O,PBMC,LAI,,RT-M184V,2.2 µM
CN(C)CCSc1nccc(-c2cccn2C)n1,PBMC,LAV,,,41.6 µM
Cc1cc(C)cc(Cc2c3c([nH]c(=O)c2C#N)OCCC3)c1,CEM + CEM-SS,LAI,,,>100 µM
O=c1ccn([C@H]2C=C(F)[C@@H](CO)O2)c(=O)[nH]1,PBMC,LAI,,,>100 µM
CCCCCCCCCCCCCCCCOCCCOP(=O)(O)OC[C@@H]1OC[C@H](n2cc(C)c(=O)[nH]c2=O)O1,PBMC,LAI,,RT-M184V,2 µM
CCCCCCCCCCCCCCCCCCCCCCOCC(C)(COCCCCCCCCCCCCCCCCCCCCCC)CO[C@]1(C(=O)O)C[C@H](OS(=O)(=O)O)[C@@H](NC(C)=O)[C@H]([C@H](OS(=O)(=O)O)[C@@H](COS(=O)(=O)O)OS(=O)(=O)O)O1,H9,IIIB,,,1.5 µg/mL
Nc1ccn([C@@H]2C=C(CO)[C@@H](O)[C@H]2O)c(=O)n1,PBMC,LAV,,,0.6 µM
Cc1cn([C@H]2CO[C@@H](CO[P@]3(=O)OCC[C@H](c4ccccc4)O3)O2)c(=O)[nH]c1=O,PBMC,LAI,,RT-M184V,3.2 µM
CC(=O)N[C@H](C(=O)N[C@@H](Cc1ccccc1)[C@@H](O)CN(CC1CCCCC1)NC(=O)[C@@H](NC(C)=O)C(C)C)C(C)C,MT-2,MN,,,0.3 µM
CC(C)OC(=O)N[C@@]12CC[C@]3(C)[C@H](CC[C@@H]4[C@@]5(C)CC[C@H](OC(=O)CC(C)(C)C(=O)O)C(C)(C)[C@@H]5CC[C@]43C)C1=C(C(C)C)C(=O)C2,MT-2,IIIB,30% human serum,,<0.199 µM
COc1ccc(/C=C2/N=C(C)N(c3nc(C)cc(Cl)n3)C2=O)cc1,,,,,56.05 µg/mL

Again, the opening 7 rows:

| smiles | cells | strain | conditions | changes | value |
|---|---|---|---|---|---|
| Cc1cn([C@H]2C[C@H](N=[N+]=[N-])[C@@H](CO)O2)c(=O)[nH]c1=O | PBMC | RW/92/016 (subtype A/A) |  |  | 0.00047 µM |
| CN1CCN(CCSc2nc(-c3ccc4ccccc4c3)c3ccccc3n2)CC1 | PBMC | LAV-1 |  |  | 2.6 µM |
| Nc1nccc2c1ncn2[C@@H]1C=C(CO)[C@@H](O)[C@H]1O | H9 | MN |  |  | 0.001 µM |
| CC(C)[C@H](NC(=O)[C@H](Cc1ccccc1)C[C@H](O)[C@H](Cc1ccccc1)NC(=O)OC(C)(C)C)C(=O)N[C@@H](Cc1ccccc1)C(=O)N1CCOCC1 | MT-2 | LAV |  |  | 0.05 µM |
| COC(=O)[C@@H](NC(=O)[C@@H](NC(=O)CC[C@H](O)[C@H](Cc1ccccc1)NC(=O)[C@H](C)NC(=O)[C@H](C)N)C(C)C)C(C)C | MOLT-4 | IIIB |  |  | 8 µM |
| Cc1cn([C@H]2C=C(F)[C@@H](CO)O2)c(=O)[nH]c1=O | PBMC | LAI |  |  | >100 µM |
| CC1=N/C(=C/c2ccccc2O)C(=O)N1c1nc(C)cc(=O)[nH]1 |  |  |  |  | 71.15 µg/mL |